Tested on: BR425 cells
Test: BR425 monoterpene metabolites from two-phase incubation (GC/MS)
Type: cell-based, Bacillus BR425
Design: key: ND: Not-detected; Trace
Conditions: 24 h incubation, average of two experiments

Molecule	Metabolites (Organic Phase Limonene) [mg/L]	Metabolites (Organic Phase α-pinene)	Metabolites (Organic Phase β-pinene)
CC1=CCC(C(C)(C)O)CC1 (stereo not drawn) [alpha-terpineol, α-terpineol]	1.4		
C=C(C)C1CC=C(C)[C@@H](O)C1 (stereo partly drawn) [carveol]	10.2	14.3 mg/L	9.6 mg/L
C=C(C)C1CC=C(C)C(=O)C1 (stereo not drawn) [carvone]	7.5	Tr	Tr
C=C(C)[C@H]1CC=C(C)CC1 [limonene]		1.31 mg/L	1.1 mg/L
CC1(C)C2CC=C(CO)C1C2 (stereo not drawn) [myrtenol]		23.4 mg/L	17.1 mg/L
C=C1C(O)CC2CC1C2(C)C (stereo not drawn) [pinocarveol]		20.5 mg/L	19.3 mg/L
C=C1C(=O)CC2CC1C2(C)C (stereo not drawn) [pinocarvone]		7.2 mg/L	6.8 mg/L
C=C1CCC2CC1C2(C)C (stereo not drawn) [β-pinene]		4.38 mg/L	
myrtenal		19.5 mg/L	12.5 mg/L

Source: patent US6344350B1, “Method for degradation of pinenes by bacillus isolates” (priority 1997, dated 2002)
